According to US9388389B2, “JFH-1 based HCV cell culture systems for NS5A of genotypes 1-7” (Hvidovre Hospital, priority 2009, dated 2016):

System: J6/JFH1 recombinants with genotype specific NS5A
Test: IFN-alpha 2b treatment of infected cultures
Type: cell-based, hepatitis C virus
Conditions: treated one and two days after infection, NS3 immunostaining on day three; FIG. 15
Procedure: Huh7.5 cells were infected with J6/JFH1 with NS5A of the indicated isolate (or ISDR type). J6/JFH1 was included with two infectious doses to control for impact of dose variability. The infectious dose of other recombinants was in the range between. Cultures were treated with IFN-alpha 2b at the given dose one and two days after infection. On day three cells were fixed and immunostained for NS3 expression. The number of single infected cells was determined by automated counting of individual wells. Values are shown as percentage infected cells compared to the average for non-treated controls of the given recombinant. […]
5×10^3 naïve Huh7.5 cells were plated per well in a poly-D-lysine coated 96-well plate (Nunc, Roskilde, D K) one day before infection with different recombinant viruses. […] In parallel, cell viability was monitored with CellTiter™ 96 AQueous One Solution Cell Proliferation Assay (Promega, Madison, Wis. USA). The number of single infected cells was determined by automated counting of individual wells as described above.
J6/JFH1 recombinants with genotype specific NS5A and the genotype 1b ISDR mutant were used to study the antiviral effect of IFN-alpha in cell culture. […] The number of single infected cells was determined by automated counting (FIG. 15). […]

**Q.** For “IFN-alpha: IFN-alpha 2b (Schering-Plough)”, which “antiviral effect on cell culture infection” value is on record?
**A.** inhibited cell culture infection with different NS5A genotypes in a dose-dependent manner
